Measured values as given in patent US4181732A, “1-Branched-alkylcarbonyl-3-(3,5-dihalophenyl)imidazolidine-2,4-diones” (Sumitomo Chemical Company, Limited, priority 1977, dated 1980).

What was measured:
[1] = test system: black spot of pear (Alternaria kikuchiana); assay: Protective activity test on black spot of pear; assay type: in vivo; conditions: 500 ppm active ingredient; pear var. 20-Seiki, sprayed 7 days before inoculation; no treatment 77.8
[2] = test system: Alternaria leaf spot of apple (Alternaria mali); assay: Protective activity test on Alternaria leaf spot of apple; assay type: in vivo; conditions: 500 ppm active ingredient; apple var. Indo, sprayed 6 days before inoculation; no treatment 79.6

O=C1C2CC=CCC2C(=O)N1SC(Cl)(Cl)C(Cl)Cl (centres unmarked)
Disease severity [1]: 24.2% | Disease severity [2]: 27.1%
